What follows are compounds tested on Malassezia globosa (assay: Potency index, ratio of acetazolamide Ki to compound Ki for Malassezia globosa beta carbonic anhydrase).

Compound	Ratio Ki
Nc1cc(S(=O)(=O)N[N+](=O)[O-])cc([N+](=O)[O-])c1O	10
Nc1ccc(S(=O)(=O)N[N+](=O)[O-])cc1	10
Nc1ccccc1S(=O)(=O)N[N+](=O)[O-]	10

Source: ChEMBL document CHEMBL3817799, “N-Nitrosulfonamides: A new chemotype for carbonic anhydrase inhibition” (Bioorg Med Chem, 2016)
